Anti-infective test results gathered from many reports (values: NIAID ChemDB through PubChem).

All rows: tests in culture; species: Human cytomegalovirus; endpoint: EC50

ECn: concentration that inhibits the pathogen or its effect by n%.

smiles	strain	read by	result
O=C(NCc1ccc(Cl)cc1)c1c[nH]c2c(F)cccc2c1=O	Clinical isolates	plaque count	11.9 µM
COc1cccc(N2CCN(C3=Nc4c(F)cccc4[C@H](CC(=O)O)N3c3cc(C(F)(F)F)ccc3OC)CC2)c1	Clinical isolate 7	plaque count	0.001 µM
CNc1cccc2c(S(=O)(=O)Nc3ccc(NC(=O)C(C)(C)CO)cc3)cccc12	WILD TYPE	plaque count	0.5 µM
Cc1cc(C)cc(Cn2c(=O)ccn(Cc3ccoc3)c2=O)c1	AD169	-	23 µM
CCc1nccn1-c1nc(NC2CCc3c(F)ccc(F)c32)nc(C)c1[N+](=O)[O-]	-	-	0.09 µM
O=C(NCc1ccc(Cl)cc1)c1c[nH]c2ccc(C#CCO)cc2c1=O	PHO	plaque count	1.3 µM
CSCCn1ccc(=S)n(Cc2cc(C)cc(C)c2)c1=O	AD169	-	>160 µM
CC/C=C\Cn1c(=O)sc2c(=O)[nH]c(N)nc21	TOWNE	ELISA	1 µM
Nc1nc2c(ncn2COC(CO)CO)c(=O)[nH]1	RCdelta97.19	plaque count	19.6 µM
O=C(NCc1ccc(Cl)cc1)c1c[nH]c2ccc(C#CCO)cc2c1=O	AD169	plaque count	0.6 µM
Cc1cccc(Cn2c(=O)ccn(CC#N)c2=O)c1	AD169	-	>196 µM
Nc1nc2c(ncn2COC(CO)CO)c(=O)[nH]1	D10 (D341E)	virus yield	<3.4 µM
CCc1nccn1-c1nc(NC2CCc3c(F)cccc32)nc(C)c1[N+](=O)[O-]	-	-	0.25 µM
Cc1cc(C)cc(Cn2c(=S)ccn(Cc3ccccc3Cl)c2=O)c1	AD169	-	>54 µM
Cc1nc(N2CCOC[C@@H]2C)nc(-n2ccnc2)c1[N+](=O)[O-]	-	-	0.07 µM
CN(C)c1cccc2c(S(=O)(=O)Nc3ccc(NC(=O)C(C)(C)CO)cc3)cccc12	AD169	plaque count	0.52 µM
CO[C@@H]1Cc2ccccc2[C@@H]1Nc1nc(C)c([N+](=O)[O-])c(-n2ccnc2)n1	-	-	0.11 µM
CN(C)c1cccc2c(S(=O)(=O)Nc3ccc(NC(=O)C(C)(C)CO)cc3)cccc12	TOWNE	plaque count	1.03 µM

The last 2 rows once more:

smiles | strain | read by | result
CO[C@@H]1Cc2ccccc2[C@@H]1Nc1nc(C)c([N+](=O)[O-])c(-n2ccnc2)n1 | - | - | 0.11 µM
CN(C)c1cccc2c(S(=O)(=O)Nc3ccc(NC(=O)C(C)(C)CO)cc3)cccc12 | TOWNE | plaque count | 1.03 µM

Blank or dashed fields: not listed here. Rows are shuffled and stem from different studies.